Laboratory results: US9993529B2, “Stable formulations of a hyaluronan-degrading enzyme” (Halozyme, Inc., priority 2011, dated 2018)

Test system: Aspergillus niger, Pseudomonas aeruginosa, E. coli, Staphylococcus aureus and Candida albicans
Assay: Antimicrobial effectiveness test, USP/EPA/EPB criteria
Settings: Example 19; component concentration (50-100 mM)

CSCC[C@H](N)C(=O)O [methionine]
Effect on antimicrobial effectiveness: Neutral
